Measurements reported in PubChem BioAssay AID624099 (ICCB-Longwood, 2012)
The whole screen tested about 21,000 reagents; below is an unselected part. Of all reagents, 497 (2.4%) got an active call. 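Higher z means weaker E2 silencing; only reporter increases were scored, and knock-downs that hurt cell survival may mask genuine repressor factors.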 Entries without a mark were called inactive. Reagents against one gene are numbered here.

Aim: 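Knock-downs relieving repression by E2 of an HPV18 LCR luciferase reporter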 (primary screen)
Cells: human C33A cervical carcinoma cells (HPV-negative) stably expressing BPV1 E2 and an HPV18 LCR luciferase reporter
Reagent: siRNA pool against human genes, 40 nM
Time to read-out: 72 h
Measured: 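Per-well luciferase luminescence, z-scored on each plate against the plate mean and SD with control wells left out, then averaged across three replicate plates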
Direction: mean z-score and z-score: higher = stronger reporter signal, weaker E2 silencing
Call rule: 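Hit if mean z-score reaches 2 and two or more of three replicate z-scores also reach 2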

With DPP9 (dipeptidyl peptidase 9), how do the results read?
mean z-score: -0.19; z-score, replicate A: -0.34; z-score, replicate B: -0.09; z-score, replicate C: -0.15

For KICS2 (KICSTOR subunit 2), how do the results read?
mean z-score: 1.89; z-score, replicate A: 1.86; z-score, replicate B: 2.03; z-score, replicate C: 1.8

With PHB2 (prohibitin 2), what was measured?
mean z-score: -0.79; z-score, replicate A: -0.9; z-score, replicate B: -0.81; z-score, replicate C: -0.65

For RPGRIP1L (RPGRIP1 like), what does the deposit list?
mean z-score: -0.19; z-score, replicate A: -0.04; z-score, replicate B: -0.24; z-score, replicate C: -0.29

Which result is listed for ZNF320 (zinc finger protein 320)?
mean z-score: -0.41; z-score, replicate A: -0.43; z-score, replicate B: -0.31; z-score, replicate C: -0.5

For SERPING1 (serpin family G member 1), how do the results read?
mean z-score: 1.32; z-score, replicate A: 1.24; z-score, replicate B: 1.23; z-score, replicate C: 1.48

For PSG3 (pregnancy specific beta-1-glycoprotein 3), how do the results read?
mean z-score: 0.9; z-score, replicate A: 0.82; z-score, replicate B: 1.09; z-score, replicate C: 0.78

For PLA2R1 (phospholipase A2 receptor 1), what was measured?
mean z-score: 0.05; z-score, replicate A: -0.14; z-score, replicate B: 0; z-score, replicate C: 0.29

How did the screen score ASB14 (ankyrin repeat and SOCS box containing 14)?
mean z-score: -0.07; z-score, replicate A: -0.44; z-score, replicate B: -0.19; z-score, replicate C: 0.42

For RPIA (ribose 5-phosphate isomerase A), what was measured?
mean z-score: 1.58; z-score, replicate A: 1.79; z-score, replicate B: 1.1; z-score, replicate C: 1.85

For MAPK1IP1L, what does the deposit list?
mean z-score: 2.72 (active); z-score, replicate A: 2.89; z-score, replicate B: 2.61; z-score, replicate C: 2.66

How did the screen score RBX1 (ring-box 1)?
mean z-score: -0.59; z-score, replicate A: -0.24; z-score, replicate B: -0.8; z-score, replicate C: -0.72

With DDC (dopa decarboxylase), what does the deposit list?
mean z-score: -0.25; z-score, replicate A: -0.4; z-score, replicate B: -0.13; z-score, replicate C: -0.22

How did the screen score OR10P1 (olfactory receptor family 10 subfamily P member 1)?
mean z-score: -0.54; z-score, replicate A: -0.59; z-score, replicate B: -0.4; z-score, replicate C: -0.63

With TIPE3 (TNF alpha induced protein 8 like 3), what was measured?
mean z-score: -0.14; z-score, replicate A: 0.47; z-score, replicate B: -0.62; z-score, replicate C: -0.28

What did the screen give for CFAP47 (cilia and flagella associated protein 47) #1?
mean z-score: 0.18; z-score, replicate A: -0.2; z-score, replicate B: 0.6; z-score, replicate C: 0.15

What is on record for CFAP47 (cilia and flagella associated protein 47) #2?
mean z-score: 1.62; z-score, replicate A: 1.68; z-score, replicate B: 1.8; z-score, replicate C: 1.38

For CFAP47 (cilia and flagella associated protein 47) #3, what was measured?
mean z-score: 0.74; z-score, replicate A: 0.52; z-score, replicate B: 0.65; z-score, replicate C: 1.05

With CFAP47 (cilia and flagella associated protein 47) #4, what does the deposit list?
mean z-score: -0.35; z-score, replicate A: 0.09; z-score, replicate B: -0.57; z-score, replicate C: -0.57

With RELL2 (RELT like 2), how do the results read?
mean z-score: 0.14; z-score, replicate A: 0.2; z-score, replicate B: 0.18; z-score, replicate C: 0.05

With KIF27 (kinesin family member 27), how do the results read?
mean z-score: 0.77; z-score, replicate A: 0.69; z-score, replicate B: 0.74; z-score, replicate C: 0.87

How did the screen score CSTF3 (cleavage stimulation factor subunit 3)?
mean z-score: 0.68; z-score, replicate A: 0.45; z-score, replicate B: 0.69; z-score, replicate C: 0.89

What is on record for LINC01281 (long independently transcribed non-coding RNA 1281)?
mean z-score: 0.77; z-score, replicate A: 0.52; z-score, replicate B: 0.73; z-score, replicate C: 1.05

For VASH2 (vasohibin 2), how do the results read?
mean z-score: 0.6; z-score, replicate A: 0.79; z-score, replicate B: 0.96; z-score, replicate C: 0.05

Which result is listed for ANP32B (acidic nuclear phosphoprotein 32 family member B)?
mean z-score: 0.73; z-score, replicate A: 0.52; z-score, replicate B: 0.87; z-score, replicate C: 0.79

Which result is listed for TTLL11 (tubulin tyrosine ligase like 11) #1?
mean z-score: -0.47; z-score, replicate A: -0.23; z-score, replicate B: -0.9; z-score, replicate C: -0.28

What is on record for TTLL11 (tubulin tyrosine ligase like 11) #2?
mean z-score: 0.66; z-score, replicate A: 0.59; z-score, replicate B: 0.67; z-score, replicate C: 0.71

As entered above.
Under “mean z-score”, ASB14 (ankyrin repeat and SOCS box containing 14) shows -0.07
Under “z-score, replicate B”, RBX1 (ring-box 1) reads -0.8
TIPE3 (TNF alpha induced protein 8 like 3), z-score, replicate B: -0.62
RPIA (ribose 5-phosphate isomerase A), z-score, replicate C → 1.85
